Measurements published in publication PMC8445491.
For at least one entry, the source does not settle the construct or the ends of the probe.

Biological target: MtrA~P phosphorylated via MtrB' M517L (UniProt P9WGM7)
Experiment: EMSA
Conditions: recombinant protein; protein details: 6xHis (pProEx-HT); label: 32P 5' end label; probe letters rebuilt from the primers and the genome

TTGCGCCCTTTCACCTCACGATGAGTTCGATCCCGTGGCTAGCGCCCCGCTAGCGTGGGGACTGCCAACGACGAATGCCCATGACGCGTGACCCGCCACGACGGCCGCAACAGCAGTCGAACAACAACCGTAGAGCTTCTCACGTCAACTTGAAAGTTCATCATTGACCTCTGACCCACCGCGACGAGCCAGTTATGCGGGTGGTATCCAGCGAACGATCCCCAGCGCTGTCTTTCCAAGAACAAACGACGAAGAAATCTCGGTAACAGTATTAGAGGGTGTGCAGTTTGGGGACAGTCTGGTCTTGGTGCAGGTCGACGTCGGTCGGAGTTGTGGATGACGGTGGCGATGACTGTGGGGTGTGTGTTGGGTCGGTGGGGATGAGGCGTGGGTTGTGAACGGAACCGCCGGGACTGTATGAGTCTGTGCGCGGTTTGTGCACAGCGACACTCACAGCCAATCTCTGTGACTGGTGTGACCTGGGAGAGAGAAGTTTTTTTAAGAACGTTGTCGGAAGAACACGCCGTGCTAGCGCTTGGAGCGCTGACGGATG (double strand) [oriC 526 bp]
binding result: binds
